Measured values from several laboratories, pooled; numbers as filed in NIAID ChemDB.

All rows: whole-cell or culture tests; agent: Herpes simplex virus 1

Blank or dashed fields: not listed here.

compound	endpoint	method	strain	cell line	result
CC1(C)OCC2(COC(O)C2)O1	EC50			CCL18	>100 µM
CC=NC(=N)c1nc(-c2ccc(OC)cc2)n(Cc2ccccc2)n1	EC50	cytopathic effect	VMW 1837	E6SM	>40 µg/mL
Nc1nc(=O)n([C@H]2C[C@H](O)[C@@H](CO)O2)cc1I	EC50	plaque count	2931	VERO	<1 µg/mL
C=C(N=CC)c1nc(-c2ccccc2)n([C@@H]2O[C@H](CO)[C@@H](O)[C@H]2O)n1	EC50	cytopathic effect	KOS	E6SM	150 µg/mL
[N-]=[N+]=N[C@H]1C[C@H](CO)S[C@@H]1n1ccc(N)nc1=O	EC50				>100 µg/mL
COc1cc(O)c2c(c1)CCCCCC(=O)CCC[C@H](C)OC2=O	EC50	cytopathic effect	Strain F	VERO	>50 µM
COc1ccc(C2CC(=O)Nc3nc(-c4ccncc4)nn32)cc1	EC50	plaque count	7401H	VERO	>50 µg/mL
CSc1nsc(-c2ccc(OCCCc3ccccc3)cc2)c1C#N	EC50	plaque count	F	HEP-2/L-929/VERO	>20 µM
CC1(C)OCC2(CO[C@@H](n3ccc(NC(=O)c4ccccc4)nc3=O)C2)O1	EC50			CCL18	>100 µM
NC(N)N/N=C1/C/C(=N\NC(N)N)c2cc3ccccc3cc21	EC50	plaque count	MP	HEP-2	7.5 µM
NC(N)=N/N=C1/C/C(=N\N=C(N)N)c2cc3ccccc3cc21	EC50	virus yield	13 (S11)	HEP-2	5 µM
N#Cc1cc([C@H]2C[C@H](O)[C@@H](CO)O2)c(F)cc1F	EC50	cytopathic effect	F	E6SM	>400 µg/mL
CCn1nc(CC(=O)N/N=C/c2ccco2)nc1C	MIC		TK (KOS ACV)		>400 µg/mL
CCCCc1cn([C@@H]2O[C@H](CO)[C@@H](O)[C@@H]2O)c(=O)[nH]c1=O	MIC		VR-3		100 µg/mL
Nc1nc(=O)n([C@@H]2O[C@H](CO)[C@@H](O)[C@@H]2F)cc1Br	EC50	plaque count	2931	VERO	<0.1 µg/mL
CC1(C)OCC2(CO[C@H](n3ccc(NC(=O)c4ccccc4)nc3=O)C2)O1	EC50			CCL18	>100 µM
COc1ccc(-c2cn3c(=O)c4ncn(COC(CO)CO)c4nc3[nH]2)cc1	EC50	cytopathic effect	F		0.005 µg/mL
CCn1nc(CC(=O)NN=C(C)C)nc1C	MIC		KOS		>400 µg/mL
CNc1ncnc2c1ncn2[C@@H]1S[C@H](CO)C[C@@H]1N=[N+]=[N-]	EC50				>100 µg/mL
CCCc1nc2n(n1)C(c1ccc(OC)cc1)CC(=O)N2	EC50	plaque count	7401H	VERO	>50 µg/mL
O=C(Cn1nnc2cc3cccnc3c(Cl)c21)Cn1nnc2cc3cccnc3c(Cl)c21	EC50	MTT	KOS	VERO	>100 µM
NC(=O)c1cncc([C@@H]2O[C@H](CO)[C@H](O)[C@@H]2O)c1	EC50	cytopathic effect	KOS	E6SM	≥100 µg/mL
COc1ccc(-c2[nH]c3nc4c(ncn4COCCO)c(=O)n3c2-c2ccc(C(c3ccccc3)c3ccccc3)cc2)cc1	EC50	cytopathic effect	F		>16 µg/mL
[N-]=[N+]=N[C@@H]1C[C@@H](CO)S[C@@H]1n1cnc2c(Cl)ncnc21	EC50				>100 µg/mL
Nc1nc2c(ncn2COCCO)c(=O)[nH]1	EC50	cytopathic effect	T28387 acyclovir-resistant	HFF	>50 µg/mL
N#Cc1cncc([C@H]2O[C@H](CO)[C@H](O)[C@@H]2O)c1	EC50	cytopathic effect	KOS	E6SM	≥100 µg/mL
CC(=O)NC1C(O)OC(CO)C(O)C1OC1OC(C(=O)[O-])C(OC2OC(CO)C(O)C(OC3OC(C(=O)[O-])C(O)C(O)C3O)C2NC(C)=O)C(O)C1O.[Na+].[Na+]	EC50		McIntyre		>400 µg/mL
O=c1ccnc2c(Cl)c3[nH][nH]nc3cc12	EC50	MTT	KOS	VERO	>100 µM
COc1ccc(C2CC(=O)Nc3nc(-c4ccc5ccccc5c4)nn32)cc1	EC50	plaque count	7401H	VERO	>50 µg/mL
O=c1[nH]c(=O)n([C@H]2C[C@H](O)[C@@H](CO)O2)cc1/C=C/I	EC50	cytopathic effect		HFF	0.016 µM
Nc1ccn([C@@H]2O[C@H](CO)[C@@H](O)[C@@H]2O)c(=O)n1	EC50	plaque count	2931	VERO	<1 µg/mL
O=c1[nH]c(=O)n([C@H]2C[C@H](O)[C@@H](CO)O2)cc1I	MIC		VR-3		3.2 µg/mL
CNc1ncnc2c1ncn2[C@@H]1S[C@@H](CO)C[C@@H]1N=[N+]=[N-]	EC50				>100 µg/mL
OC[C@H]1O[C@@H](c2ccc(F)cc2F)C[C@@H]1O	EC50	cytopathic effect	KOS/ACV-R	E6SM	>400 µg/mL
O=c1c2ncn(COCCO)c2nc2[nH]c(-c3ccccc3)c(-c3ccc(C(c4ccccc4)c4ccccc4)cc3)n12	EC50	cytopathic effect	KOS		>16 µg/mL
OC[C@H]1O[C@@H](c2cc(I)c(F)cc2F)C[C@@H]1O	EC50	cytopathic effect	VMW 1837	E6SM	>400 µg/mL
CC(=O)OC1CC2(CO1)COC(C)(C)O2	EC50			CCL18	>100 µM
N#Cc1cncc([C@@H]2O[C@H](CO)[C@@H](O)[C@@H]2O)c1	EC50	cytopathic effect	KOS	E6SM	≥100 µg/mL
CSc1nsc(-c2ccc(OCCCCOc3ccc(C#N)cc3)cc2)c1C#N	EC50	plaque count	F	HEP-2/L-929/VERO	>2 µM
Nc1nc(=O)n([C@@H]2CC[C@H](CO)O2)cc1F	EC50	plaque count	WT-34	HEL	3.5 µM
CCCCCCCCCCc1nccn(C(CO)OC(CO)CO)c1=O	EC50	cytopathic effect		MRC-5	>100 µM
CCCCCc1nc2n(n1)C(c1ccccc1)CC(=O)N2	EC50	plaque count	7401H	VERO	<50 µg/mL
CCn1nc(Cc2n[nH]c(=S)o2)nc1C	MIC		KOS		>400 µg/mL
CC=NC(=N)c1nc(-c2ccc(C)cc2)n(Cc2ccccc2)n1	EC50	cytopathic effect	KOS	E6SM	>4 µg/mL
O=c1[nH]c(=O)n([C@@H]2O[C@H](CO)[C@@H](O)[C@@H]2F)cc1I	EC50	plaque count	2931	VERO	<0.1 µg/mL
Cc1cn([C@@H]2O[C@H](CO)[C@@H](O)[C@@H]2O)c(=O)[nH]c1=O	MIC		WT-34		1 µg/mL
O=[N+]([O-])c1cc([C@H]2C[C@H](O)[C@@H](CO)O2)c(F)cc1F	EC50	cytopathic effect	McIntyre	E6SM	>400 µg/mL
O=C(Nc1ccn([C@@H]2CC(O)(CO)CO2)c(=O)n1)c1ccccc1	EC50			CCL18	>100 µM
CCCCCCCCCCc1nccn(COCCO)c1=O	EC50	cytopathic effect		MRC-5	>100 µM
C=C(N=CC)c1nc(-c2ccccc2)n(C2O[C@H](CO)[C@@H](O)[C@H](O)[C@H]2O)n1	EC50	cytopathic effect	KOS	E6SM	150 µg/mL
CC(=O)OCCOCn1cnc2c(=O)n3cc(-c4ccc5ccccc5c4)[nH]c3nc21	EC50	cytopathic effect	TK-deficient acyclovir-resistant		>16 µg/mL
c1c[nH]c2cc3ncnc3cc2c1	EC50	MTT	KOS	VERO	>100 µM
C=C(N=CC)c1nc(-c2cccc(C)c2)n(C2O[C@H](CO)[C@@H](O)[C@H](O)[C@H]2O)n1	EC50	cytopathic effect	VMW 1837	E6SM	300 µg/mL
CSc1nsc(-c2ccc(OCCOc3ccc([N+](=O)[O-])cc3)cc2)c1C#N	EC50	plaque count	F	HEP-2/L-929/VERO	>1 µM
COc1ccc(-n2c(Cc3nc4n(n3)CCCC4)n[nH]c2=S)cc1	MIC		KOS		80 µg/mL
C=C(N=CC)c1nc(-c2ccc(OC)cc2)n(C2O[C@H](CO)[C@@H](O)[C@H](O)[C@H]2O)n1	EC50	cytopathic effect	VMW 1837	E6SM	>200 µg/mL
OC[C@H]1O[C@H](c2cc(F)c(F)cc2F)C[C@@H]1O	EC50	cytopathic effect	KOS/ACV-R	E6SM	>400 µg/mL
CC=NC(=N)c1nc(-c2cccc(OC)c2)n(COCCO)n1	EC50	cytopathic effect	VMW 1837	E6SM	>400 µg/mL
COc1cc(O)c2c(c1)/C=C/CCC[C@H](O)CCC[C@H](C)OC2=O	EC50	cytopathic effect	Strain F	VERO	>50 µM
OC[C@H]1O[C@@H](c2cc(F)c(F)cc2F)C[C@@H]1O	EC50	cytopathic effect	KOS	E6SM	>400 µg/mL
CCOC(=O)c1ccc(OCCCOc2ccc(-c3snc(SC)c3C#N)cc2)cc1	EC50	plaque count	F	HEP-2/L-929/VERO	>2 µM
Nc1ncnc2c1ncn2C[C@@H](CO)OCP(=O)(O)O	EC50	cytopathic effect		HEL	0.02 µM
CC=NC(=N)c1nc(-c2ccccc2)n(C/C=C/c2ccccc2)n1	EC50	cytopathic effect	VMW 1837	E6SM	>4 µg/mL
Cc1cn([C@H]2S[C@H](CO)C[C@H]2N=[N+]=[N-])c(=O)[nH]c1=O	EC50				>100 µg/mL
CCSC1NN=C(Cc2nc(C)n(C)n2)N1c1ccccc1	MIC		TK (KOS ACV)		80 µg/mL
C[C@H]1C/C=C/CC/C=C/C(=O)Cc2c(Cl)c(O)cc(O)c2C(=O)O1	EC50	cytopathic effect	Strain F	VERO	1.5 µM
O=c1c2ncn(COC(CO)CO)c2nc2[nH]c(-c3ccccc3)cn12	EC50	cytopathic effect	F		0.005 µg/mL
CCc1nc(CC(=O)NN=C(C)C)nn1CC	MIC		TK (KOS ACV)		>400 µg/mL
Cc1cn([C@@H]2O[C@H](CO)[C@@H](O)[C@@H]2O)c(=O)[nH]c1=O	EC50	plaque count	WT-34	VERO	1.6 µM
Cc1nc(Cc2n[nH]c(=S)n2-c2ccccc2)nn1C	MIC		KOS		400 µg/mL
O=c1[nH]c(=O)n([C@H]2C[C@H](O)[C@@H](CO)O2)cc1I	EC50	cytopathic effect		HFF	0.36 µM
[N-]=[N+]=N[C@@H]1C[C@@H](CO)S[C@@H]1n1ccc(=O)[nH]c1=O	EC50				>100 µg/mL
C=Cc1cn([C@H]2C[C@H](O)[C@@H](CO)O2)c(=O)[nH]c1=O	EC50	cytopathic effect		HFF	0.04 µM
Cc1cc([C@H]2C[C@H](O)[C@@H](CO)O2)c(F)cc1F	EC50	cytopathic effect	VMW 1837	E6SM	>400 µg/mL
Cc1cc2c(c3ccccc13)C(=N\NC(N)N)/C(=N/NC(N)N)C2	EC50	plaque count	MP	HEP-2	10 µM
O=C1CC(c2ccc([N+](=O)[O-])cc2)n2nc(-c3ccncc3)nc2N1	EC50	plaque count	7401H	VERO	>50 µg/mL
N#Cc1cncc([C@@H]2O[C@H](CO)[C@H](O)[C@@H]2O)c1	EC50	cytopathic effect	KOS	E6SM	≥100 µg/mL

Repeating the first 8 entries:

| compound | endpoint | method | strain | cell line | result |
|---|---|---|---|---|---|
| CC1(C)OCC2(COC(O)C2)O1 | EC50 |  |  | CCL18 | >100 µM |
| CC=NC(=N)c1nc(-c2ccc(OC)cc2)n(Cc2ccccc2)n1 | EC50 | cytopathic effect | VMW 1837 | E6SM | >40 µg/mL |
| Nc1nc(=O)n([C@H]2C[C@H](O)[C@@H](CO)O2)cc1I | EC50 | plaque count | 2931 | VERO | <1 µg/mL |
| C=C(N=CC)c1nc(-c2ccccc2)n([C@@H]2O[C@H](CO)[C@@H](O)[C@H]2O)n1 | EC50 | cytopathic effect | KOS | E6SM | 150 µg/mL |
| [N-]=[N+]=N[C@H]1C[C@H](CO)S[C@@H]1n1ccc(N)nc1=O | EC50 |  |  |  | >100 µg/mL |
| COc1cc(O)c2c(c1)CCCCCC(=O)CCC[C@H](C)OC2=O | EC50 | cytopathic effect | Strain F | VERO | >50 µM |
| COc1ccc(C2CC(=O)Nc3nc(-c4ccncc4)nn32)cc1 | EC50 | plaque count | 7401H | VERO | >50 µg/mL |
| CSc1nsc(-c2ccc(OCCCc3ccccc3)cc2)c1C#N | EC50 | plaque count | F | HEP-2/L-929/VERO | >20 µM |

ECn: concentration that inhibits the pathogen or its effect by n%. Conditions beyond the fields shown may differ between rows.